Counter-ions that a name gives are not always drawn.
Legend:
ctDNA = assay: CD titrations; assay type: binding, calf; settings: pH 7.0, sodium cacodylate buffer
calf thymus DNA (ctDNA) = assay: Fluorimetric titrations with ctDNA; settings: I0 starting intensity of compound, I intensity of complex calculated by Scatchard equation; pH 7.0

SMILES	binding mode to ctDNA suggested by CD/ICD spectra (ctDNA)	fluorescence intensity ratio I/I0 with ctDNA (calf thymus DNA (ctDNA))
CC(C)NC(=N)c1ccc2nc(-c3ccc(-c4ccc(Cl)cc4)o3)sc2c1 [Compound 8, 2-[5-(4-Chlorophenyl)furan-2-yl]-6-N-isopropilamidinobenzothiazole hydrochloride]	minor groove binding	0.2
Cl.Clc1ccc(-c2ccc(-c3nc4ccc(C5=NCCN5)cc4s3)o2)cc1 [Compound 9, 2-[5-(4-Chlorophenyl)furan-2-yl]-6-(4,5-Dihydro-1H-imidazol-2-yl)benzothiazole hydrochloride]	minor groove binding	0.5
Cl.O=[N+]([O-])c1ccc(-c2ccc(-c3nc4ccc(C5=NCCN5)cc4s3)o2)cc1 [Compound 6, 6-(4,5-Dihydro-1H-imidazol-2-yl)-2-[5-(4-nitrophenyl)furan-2-yl]benzothiazole hydrochloride]	intercalative binding	
CC(C)NC(=N)c1ccc2nc(-c3ccc(-c4ccc([N+](=O)[O-])cc4)o3)sc2c1 [Compound 5, 2-[5-(4-Nitrophenyl)furan-2-yl]-6-N-isopropilamidinobenzothiazole hydrochloride]	inside the ctDNA groove, most probably in the form of a dimer	0.8

Source: paper PMC8401404 (Molecules, 2021)
